Results of unrelated studies side by side (data: NIAID ChemDB).

Shared fields: cytotoxicity tests; read-out: CC50

CCn is the concentration with n% toxicity to the cells. Conditions beyond the fields shown may differ between rows.

compound,cell line,value
C1CCN(CCN2CCCCC2C23CC4CC(CC(C4)C2)C3)CC1,MDCK,561 µM
Nc1nccc2c1ncn2[C@@H]1C=C(CO)[C@@H](O)[C@H]1O,HeLa,0.31 µg/mL
Nc1nc(NCC(F)(F)F)c2ncn(CCOCP(=O)(O)O)c2n1,HFF,>270 µM
CCCCCCCCCCCCCCCCOCCCOP(=O)(O)CO[C@H](CO)Cn1ccc(N)nc1=O,HFF,31 µM
C=CCNc1nc(N)nc2c1ncn2CCOCP(=O)(O)O,HFF,>305 µM
CC1=C[C@H]2O[C@@H]3C[C@H]4OC(=O)/C=C\C=C\[C@H]([C@@H](C)O)OCC[C@@H](C)[C@H](O)C(=O)OC[C@@]2(CC1)[C@]4(C)[C@]31CO1,VERO,0.0073 µg/mL
Nc1nc(Cl)c2ncn(CCOCP(=O)(O)O)c2n1,PHK,0.9 µg/mL
Nc1ncnc2c1ncn2[C@@H]1C[C@H](CO)[C@@H](O)[C@H]1O,VERO E6,30 µM
Nc1ccn(C[C@H]2COP(=O)(O)CO2)c(=O)n1,HFF,>302 µM
c1ccc(CN2CCCCC2C23CC4CC(CC(C4)C2)C3)cc1,MDCK,145 µM
Nc1nc(N)c2ncn(CCOCP(=O)(O)O)c2n1,PHK,31.3 µg/mL
Nc1ccn([C@H]2CC[C@@H](CO)O2)c(=O)n1,VERO 76,>100 µM
CC(=O)Nc1cc2c(O)c(N=Nc3ccc(S(N)(=O)=O)cc3)c(S(=O)(=O)O)cc2cc1S(=O)(=O)O,VERO,>400 µM
Nc1ccn([C@@H]2O[C@H](CO)C[C@H]2O)c(=O)n1,VERO 76,>100 µM
Nc1nc(NC2CC2)c2ncn(CCCOCP(=O)(O)O)c2n1,PHK,15.9 µg/mL
Nc1nccc2c1ncn2[C@@H]1C=C(CO)[C@@H](O)[C@H]1O,VERO E6,>1700 µM
O=C(O)/C(S)=C/c1ccc(I)cc1,VERO 76,>100 µM
c1ccc(N=Nc2ccccc2)cc1,VERO,>400 µM
CN1CCCCCC1C12CC3CC(CC(C3)C1)C2,MDCK,39 µM
CC1=CC2O[C@H]3C[C@H]4OC(=O)/C=C\C=C\[C@H](C(C)O)OCC/C(C)=C/C(=O)OCC2(CC1)[C@@]4(C)[C@]31CO1,VERO,0.0072 µg/mL
Nc1ncnc2c1ncn2[C@@H]1C=C[C@@H](O)[C@H]1O,HeLa,18 µg/mL
CCCCCCCCCCCCCCCCOCCCOP1(=O)CO[C@@H](Cn2ccc(N)nc2=O)CO1,HFF,>100 µM
CCCCOC(=O)[C@H](C)NP1(=O)CO[C@@H](Cn2ccc(N)nc2=O)CO1,HFF,>153 µM
CC(C)CCCCCOP(=O)(COCCn1cnc2c(NC3CC3)nc(N)nc21)OCCCCCC(C)C,PHK,9.7 µg/mL
Nc1ccnc(=O)[nH]1,VERO 76,>100 µM
CC(C)CCCCCOP(=O)(COCCn1cnc2c(N)ncnc21)OCCCCCC(C)C,PHK,12.9 µg/mL
Nc1nc(=O)n([C@H]2C[C@H](O)[C@@H](CO)O2)cc1Br,VERO 76,>100 µM
Nc1ncnc2c1ncn2CCOCP(=O)(O)O,PHK,12.3 µg/mL
CCOC(=O)C12CC3CC(CC(C3)C1)C2,MDCK,196 µM
CNc1nc(N)nc2c1ncn2CCOCP(=O)(O)O,PHK,8.9 µg/mL
CO[C@H]1C(n2cc(C)c(NC(C)=O)nc2=O)O[C@H](CO)[C@H]1O,VERO 76,>100 µM

3 of the rows above, restated:

compound	cell line	value
CCCCOC(=O)[C@H](C)NP1(=O)CO[C@@H](Cn2ccc(N)nc2=O)CO1	HFF	>153 µM
Nc1nc(Cl)c2ncn(CCOCP(=O)(O)O)c2n1	PHK	0.9 µg/mL
C=CCNc1nc(N)nc2c1ncn2CCOCP(=O)(O)O	HFF	>305 µM